Measurements as given in paper PMC3549253, “Effect of repetitive lysine–tryptophan motifs on the bactericidal activity of antimicrobial peptides” (Amino Acids, 2012).
In brackets after ≈: the same amount, converted by molar mass. Where two headings read alike, the source gives them in different places.

System: Bacillus subtilis (KCTC 1918)
Format: cell-based
Conditions: 2 × 10^5 CFU/ml, 24 h at 37° C, average of 3–4 independent experiments
Source text: Escherichia coli (KCTC 1682), Salmonella typhimurium (KCTC 1926), Pseudomonas aeruginosa (KCTC 1637), Staphylococcus aureus (KCTC 1621), Bacillus subtilis (KCTC 1918), and Listeria monocytogenes (KCTC 3710) were obtained from the Korean Collection for Type Cultures (KCTC). Drug-resistant E. coli strains (CCARM 1229 and CCARM 1238), S. typhimurium strains (CCARM 8007, CCARM 8009, and CCARM 8013), and S. aureus strains (CCARM 3089, CCARM 3090, CCARM 3108, CCARM 3114, and CCARM 3126) were from the Culture Collection of Antibiotic-Resistant Microbes (CCARM) at Seoul Women’s University, Korea.
The antibacterial activities of the peptides against Gram-negative, Gram-positive and antibiotic-resistant bacterial strains were evaluated using the microbroth dilution method (Park et al. [2003]). Aliquots of culture medium containing bacterial suspensions in mid-logarithmic phase at a concentration of 2 × 10^5 colony forming units (CFU)/ml were added to each well of a multiwell plate containing peptide solution serially diluted 2× in 10 mM sodium phosphate buffer (pH 7.2) or phosphate-buffered saline (PBS, 1.5 mM KH2PO4, 2.7 mM KCl, 8.1 mM Na2HPO4, 150 mM NaCl, pH 7.2). Growth inhibition was evaluated by measuring the absorbance at 620 nm using a Versa-Max microplate Elisa Reader (Molecular Devices Co., Sunnyvale, CA, USA) after 24 h of incubation at 37° C. […]

SMILES: CC[C@H](C)[C@H](NC(=O)CN)C(=O)NCC(=O)N[C@@H](C)C(=O)N[C@H](C(=O)N[C@@H](CC(C)C)C(=O)N[C@@H](CCCCN)C(=O)N[C@H](C(=O)N[C@@H](CC(C)C)C(=O)N[C@H](C(=O)N[C@H](C(=O)NCC(=O)N[C@@H](CC(C)C)C(=O)N1CCC[C@H]1C(=O)N[C@@H](C)C(=O)N[C@@H](CC(C)C)C(=O)N[C@H](C(=O)N[C@@H](CO)C(=O)N[C@@H](Cc1c[nH]c2ccccc12)C(=O)N[C@H](C(=O)N[C@@H](CCCCN)C(=O)N[C@@H](CCCNC(=N)N)C(=O)N[C@@H](CCCCN)C(=O)N[C@@H](CCCNC(=N)N)C(=O)N[C@@H](CCC(N)=O)C(=O)N[C@@H](CCC(N)=O)C(N)=O)[C@@H](C)CC)[C@@H](C)CC)[C@@H](C)O)[C@@H](C)O)C(C)C)C(C)C [Melittin, reference compound]
- MIC (10 mM sodium phosphate buffer, pH 7.2): 1.56 µM (≈ 4.44 µg/mL)
- MIC (PBS, pH 7.2 (number in parentheses)): 3.12 µM (≈ 8.88 µg/mL)
